Laboratory results published in patent US9309285B2, “Macrocyclic broad spectrum antibiotics” (priority 2012, dated 2016).

The chains behind the UniProt entries cited, without tags or fusion partners.
UniProt P0A070, whole entry: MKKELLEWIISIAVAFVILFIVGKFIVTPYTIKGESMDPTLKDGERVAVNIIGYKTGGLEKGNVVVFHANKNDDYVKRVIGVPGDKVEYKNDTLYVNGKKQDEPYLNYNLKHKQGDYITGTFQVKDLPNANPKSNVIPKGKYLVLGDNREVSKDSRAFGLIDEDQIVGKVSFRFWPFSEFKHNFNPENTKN
UniProt P00803, whole entry: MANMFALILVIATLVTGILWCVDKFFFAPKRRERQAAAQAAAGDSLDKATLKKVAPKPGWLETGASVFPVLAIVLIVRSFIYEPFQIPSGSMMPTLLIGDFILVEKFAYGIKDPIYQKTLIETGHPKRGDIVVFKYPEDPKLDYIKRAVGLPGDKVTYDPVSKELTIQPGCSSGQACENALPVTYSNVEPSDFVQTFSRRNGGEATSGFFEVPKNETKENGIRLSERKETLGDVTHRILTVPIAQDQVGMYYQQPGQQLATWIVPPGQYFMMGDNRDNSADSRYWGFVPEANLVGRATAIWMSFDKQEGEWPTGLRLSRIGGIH

How the values were obtained:
S. aureus SPase = S. aureus SPase (Staphylococcus aureus, UniProt P0A070); assay: SPase enzyme inhibition assay, fluorogenic peptide substrate, S. aureus; format: biochemical; settings: read-out: IC 50 (nM) S. aureus; 10 nM S. aureus SPase, 20 μM substrate, 10 minutes pre-incubation, room temperature
[1] = tested on: Escherichia coli MC4100 harboring the IMP4213; assay: MIC by broth micro-dilution (CLSI), E. coli; format: cell-based; settings: E. coli MC4100 IMP4213 (increased outer-membrane permeability); cation adjusted Mueller Hinton Broth + 0.002% Tween-80; 35° C., 22 hours
Description: (§1) In vitro antimicrobial activity of each compound was determined by measuring minimal inhibitor concentrations (MICs) using the broth micro-dilution technique as approved by the Clinical and Laboratory Standards Institute (CLSI) (Methods for Dilution Antimicrobial Susceptibility Tests for Bacteria that Grow Aerobically; Approved Standard—Eighth Edition. CLSI document M07-A8. Wayne, Pa.: Clinical and Laboratroy Standards; 2009). Antibacterial activity was measure against two strains of bacteria: a Methicillin Resistant Staphylococcus aureus strain USA 300 (NRS384) and a strain of Escherichia coli MC4100 harboring the IMP4213, which results in increased outer-membrane permeability (B Martin and Silhavy T. Imp/OstA is required for cell envelope biogenesis in Escherichia coli. (2002) Molecular Microbiology, 45(5), 1289-1302). Cells were inoculated onto plates of Trypyticase Soy Agar or Luria Agar respectively and grown at 35° C. for 20 hours. Inocula suspensions were prepared by scraping cells into 1 ml of testing media (cation adjusted Mueller Hinton Broth supplemented with 0.002% v/v Tween-80) and diluting to a final OD600 nm of 0.01.
(§2) Test compounds were prepared in DMSO at a concentration of 10 mg/ml. […]

[2] = tested on: Methicillin Resistant Staphylococcus aureus strain USA 300 (NRS384); assay: MIC by broth micro-dilution (CLSI), S. aureus; format: cell-based; settings: MRSA USA 300 (NRS384); cation adjusted Mueller Hinton Broth + 0.002% Tween-80; 35° C., 22 hours
Description: as §1, §2

E. coli SPase = E. coli SPase (Escherichia coli, UniProt P00803); assay: SPase enzyme inhibition assay, fluorogenic peptide substrate, E. coli; format: biochemical; settings: read-out: IC 50 (nM) E. coli; 3 nM E. coli SPase, 20 μM substrate, 10 minutes pre-incubation, room temperature

CCCCc1ccc(-c2ccc(C(=O)N[C@@H](CCCCN)C(=O)N(C)[C@@H]3C(=O)N[C@@H](C)C(=O)N[C@H](C(=O)N[C@@H](C)B4O[C@@H]5C[C@@H]6C[C@@H](C6(C)C)[C@]5(C)O4)COCCCCc4cc3ccc4OC)cc2)cc1
IC50 (S. aureus SPase): 210 nM | MIC (μg/mL) E. coli [1]: 1.4 µg/mL | MIC (μg/mL) S. aureus [2]: 4 µg/mL | IC50 (E. coli SPase): 96 nM
